# PubChem BioAssay AID624099 – ICCB-Longwood | 2012
# Aim: 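Host factors E2 relies on to silence an HPV18 LCR reporter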 (primary screen)
# System: human C33A cervical carcinoma cells (HPV-negative) stably expressing BPV1 E2 and an HPV18 LCR luciferase reporter
# Reagent: siRNA pool against human genes, 40 nM
# Timing: 72 h
# Measured: 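Per-well luciferase luminescence, z-scored on each plate against the plate mean and SD with control wells left out, then averaged across three replicate plates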
# Scale: mean z-score and z-score: higher = stronger reporter signal, weaker E2 silencing
# Rule for the call: 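Mean z ≥ 2 together with z ≥ 2 in two or more of the three replicates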
# Here is a random part of about 21,000 reagents tested. 497 of them (2.4%) were called active. 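Higher z means weaker E2 silencing; only reporter increases were scored, and knock-downs that hurt cell survival may mask genuine repressor factors.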 Unmarked entries are inactive. Reagents against one gene are numbered here.
target gene,reagent,mean z-score,"z-score, replicate A","z-score, replicate B","z-score, replicate C"
WDHD1,1,-1.01,-1.01,-1.02,-1
ACOT13,1,1.19,0.82,1.64,1.12
RAD9A,1,0.2,0.27,0.36,-0.03
MNDA,1,-0.34,-0.22,-0.23,-0.58
MAN2A2,1,0.98,1.34,0.53,1.06
KCNJ8,1,-0.29,0,-0.3,-0.56
LIPC,1,-0.06,0.1,-0.23,-0.05
PPIAP78,1,1.07,1.06,1.31,0.82
NTMT2,1,0.25,0.23,0.37,0.15
SLC30A1,1,-0.01,-0.1,0.14,-0.07
MAP3K8,1,0.14,0.01,0.32,0.09
TRMU,1,0.51,0.65,0.16,0.73
LOC390551 (retired record),1,0.03,-0.5,0.25,0.35
PLS3,1,0.5,0.26,0.67,0.59
HSPA13,1,-0.72,-0.81,-0.74,-0.6
LINC01623,1,0.5,0.32,0.64,0.56
STK24,1,-1.3,-1.49,-1.34,-1.06
KCNC4,1,0.6,0.96,0.42,0.41
KLHL38,1,0.92,1.18,0.8,0.77
PLPPR1,1,-0.35,0.4,-0.32,-1.14
WNT2,1,0.34,0.3,0.3,0.4
DUOXA1,1,-0.1,-0.38,0.2,-0.13
PHTF1,1,1.48,2.64,0.91,0.88
IRGM,1,-0.14,0.03,-0.33,-0.12
CFL1P1,1,-0.69,-1.04,-0.71,-0.3
PFKL,1,1.01,0.56,1.41,1.06
ZNF304,1,-0.06,0.28,0.27,-0.73
LIPG,1,-0.41,-0.3,-0.25,-0.67
ADGRG5,1,2.44 (active),2.46,2.22,2.65
INTS2,1,-0.59,-0.77,-0.44,-0.57
PLCD3,1,-0.72,-0.96,-0.65,-0.53
TAF11L1,1,-0.56,-0.74,-0.39,-0.55
SLC3A2,1,0.45,0.1,0.46,0.78
STXBP2,1,-0.61,-0.61,-0.62,-0.6
PLEKHN1,1,-1.13,-0.99,-1.39,-1
TRIM69,1,1.8,1.56,1.9,1.95
TRIM69,2,-0.22,0.27,-0.41,-0.53
CCL5,1,0.18,0.17,0.16,0.2

6 entries from above, arranged by “z-score, replicate B”, low to high:
target gene,reagent,mean z-score,"z-score, replicate A","z-score, replicate B","z-score, replicate C"
PLCD3,1,-0.72,-0.96,-0.65,-0.53
INTS2,1,-0.59,-0.77,-0.44,-0.57
LIPG,1,-0.41,-0.3,-0.25,-0.67
ZNF304,1,-0.06,0.28,0.27,-0.73
PFKL,1,1.01,0.56,1.41,1.06
ADGRG5,1,2.44 (active),2.46,2.22,2.65

The list goes on:
target gene,reagent,mean z-score,"z-score, replicate A","z-score, replicate B","z-score, replicate C"
SLC22A16,1,0.52,0.88,0.4,0.28
DEFB126,1,-0.3,0.18,-0.62,-0.45
AMBN,1,-0.65,-0.88,-0.67,-0.4
SMAD5,1,0.39,0,0.47,0.69
PRSS12,1,1.8,1.7,1.98,1.71
DEFB4A,1,0.86,0.95,0.79,0.84
CCR6,1,1.61,1.52,1.83,1.49
PDE4B,1,-0.37,-0.17,-0.48,-0.46
TMEM45B,1,-0.32,-0.25,-0.5,-0.23
HSPA12A,1,-0.13,-0.3,-0.22,0.14
SEMA6B,1,-0.32,-0.21,-0.11,-0.63
RPL32P3,1,0.12,0.16,0.23,-0.04
LINC02579,1,-0.16,-0.24,-0.4,0.17
CSRNP2,1,1.39,1.71,1.44,1.03
AKR1D1,1,2.26 (active),2.72,2.07,1.97
FKBP4P2,1,0.49,0.16,0.79,0.52
SMAP2,1,-1.11,-1.1,-1.37,-0.85
TCIM,1,0.45,0.78,0.45,0.12
LOC387846 (retired record),1,-0.32,-0.05,-0.48,-0.44
VEGFC,1,0.8,0.83,0.57,1.01
CTXN2,1,1.43,1.68,1.14,1.48
IL22RA2,1,-0.55,-0.65,-0.72,-0.27
CDH6,1,-0.39,-0.66,-0.2,-0.32
LOC392726 (retired record),1,0.19,0.49,0.12,-0.06
SYT4,1,-0.39,-0.28,-0.47,-0.43
OR10V1,1,-0.26,-0.29,0,-0.48
LOC284931 (retired record),1,0.21,0.18,0.25,0.21
OLFML2B,1,0.53,0.32,0.77,0.49
MYL6,1,-1.03,-1.14,-0.58,-1.36
GPC1,1,0.13,0.1,0.11,0.17
C4orf17,1,0.6,0.29,0.66,0.86
LHB,1,0.53,0.41,0.78,0.41
TP53BP1,1,-0.08,-0.02,-0.1,-0.11
TMSB15B,1,0.68,0.96,0.54,0.55
NRN1L,1,0.88,1.07,0.73,0.85
